Measured values as given in PMC6430473.
pKd: −log10 of the molar value. The exact form of at least one protein or probe is not confirmed.

Columns and labels:
[1] = molecular target: T1, Clp (Xanthomonas campestris pv. campestris 8004) (UniProt Q4UZF6); assay: DNase I footprinting; conditions: recombinant protein, residues 1-230, protein details: 6xHis (pQE-30), label: FAM, probe letters rebuilt from the primers and the genome
T1 sequence: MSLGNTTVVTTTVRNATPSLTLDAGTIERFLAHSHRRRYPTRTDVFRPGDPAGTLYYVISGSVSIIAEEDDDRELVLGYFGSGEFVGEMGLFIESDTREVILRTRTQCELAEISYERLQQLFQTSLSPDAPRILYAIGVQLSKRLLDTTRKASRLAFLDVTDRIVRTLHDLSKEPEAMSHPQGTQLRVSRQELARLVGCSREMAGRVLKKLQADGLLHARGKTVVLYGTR

[2] = molecular target: T1, Clp (Xanthomonas campestris pv. campestris 8004); assay: EMSA; conditions: recombinant protein, residues 1-230, protein details: 6xHis (pQE-30), label: FAM; for binding result: 20-30 nM Clp, two bands, probe letters rebuilt from the primers and the …

AGTTCGGTGCGCAGGAAGGACATGGGGGACACTCCAGGGACAAGAACGACAGTCCTGCGGACAGCGCGCAGGGGGCACTAGTGTGCGGGAAAGCGACCGCTCCCGCAGCCGCGATGTGATCGGTGCGGCAATGGTGTTTTCTGTGGGGACGATCACACCACGCGACGCGCGCACAGACCAAGATGCCCGCCTTACCGCGCTCGGGTGTCGAGCCCGGTTCTCTAGGGAGATCACCATGTCCATATTCAGGACCGCAAGCACGCTCGCTTTGGCCACCGCCCTCGCACTGGCCGCCGGGCCGGCCTTCAGCTATTCCATCAACAACAGCAGGCAGATCGTCGACGACAGCGGCAAGGTCGTGCAGCTCAAGGGTGTGAA (double strand) [Dye-2 footprint fragment]
binding result ([1]; 20 uM Clp, protects -53 to -32): binds

GCAATGGTGTTTTCTGTGGGGACGATCACACCACGCGACGCGCGCACAGACCAAGATGCCCGCCTTACCGCGCTCGGGTGTCGAGCCCGGTTCTCTAGGGAGATCACCATGTCCATATTCAGGACCGCAAGCACGCTCGCTTTGGCCACCGCCCTCGCACTGGCCGCCGGGCCGGCCTTCAGCT (double strand) [P-64/+120]
pKd ([2]; probe letters rebuilt from the primers and the genome): 7.43

CATGGTGATCTCCCTAGAGAACCGGGCTCGACACCCGAGCGCGGTAAGGCGGGCATCTTGGTCTGTGCGCGCGTCGCGTGGTGTGATCGTCCCCACAGAAAACACCATTGCCGCACCGATCACATCGCGGCTGCGGGAGCGGTCGCTTTCCCGCACACTAGTGCCCCCTGCGCGCTGTCCGCAGGACT (double strand) [P-141/+47]
binding result [2]: binds

CATGGTGATCTCCCTAGAGAACCGGGCTCGACACCCGAGCGCGGTAAGGCGGGCATCTTGGTCTGTGCGCGCGTCGCGTGGTGTGATCGTCCCCACAGAAAACACCATTGCCGCACCGATCACATCGCGGCTGCGGGAGCGGTCGCTTTCCCGCACACTAGTGCCCCCTGCGCGCTGTCCGCAGGACTGTCGTTCTTGTCCCTGGAGTGTCCCCCATGTCCTTCCTGCGCA (double strand) [P-184/+47]
binding result [2]: binds

CATGGTGATCTCCCTAGAGAACCGGGCTCGACACCCGAGCGCGGTAAGGCGGGCATCTTGGTCTGTGCGCGCGTCGCGTGGTGTGATCGTCCCCACAGAAAACACCATTGCCGCACCGATCACATCGCGGCTGCGGGA (double strand) [P-91/+47]
binding result [2]: binds

AGGCGATGACTTCGGGAATCAGGGCGAACGTGGCAACGGCGCCAGCCATCAGTTCGCGCGCAGGCGAGGCGCGCCATTGCGCCAGTTCGGTGCGCAGGAAGGACATGGGGGACACTCCAGGGACAAGAACGACAGTCCTGCGGACAGCGCGCAGGGGGCACTAGTGTGCGGGAAAGCGACCGCTCCCGCAGCCGCGATGTGATCGGTGCGGCAATGGTGTTTTCTGTGGGGACGATCACACCACGCGACGCGCGCACAGACCAAGATGCCCGCCTTACCGCGCTCGGGTGTCGAGCCCGGTTCTCTAGGGAGATCACCATGTCCATATTCAGG (double strand) [Dye-3 footprint fragment]
binding result ([1]; 40 uM Clp, protects -80 to -32): binds
